A mixed list of measured activities; the numbers were collected in NIAID ChemDB.

All rows: tests in culture; species: Poliovirus

An empty or dashed field is not shown.

compound,strain or isolate,dose,read-out,cells,result
Cc1ccc(C(=O)CCCCCCOc2ccc(C3=N[C@H](C)CO3)cc2)s1,TYPE 1,-,EC50,VERO,>25.97 µM
Brc1ccc(C2=Cc3cc(Br)ccc3OC2)cc1,II (TYPE 2),-,EC50,HEP-2,>10 µM
CCC(O)c1ccc2c(c1)Sc1ccccc1O2,TYPE 3,0.4 µg/mL,inhibition,BSC-1,16%
Cc1cc(CCCCCCCOc2ccc(C3=NCCO3)cc2)on1,TYPE 3,-,EC50,VERO,0.26 µM
CCC(=O)C(CCCCCCOc1ccc(OC)cc1Cl)C(=O)CC,MEF (TYPE 2),0.04 µM,inhibition,HeLa,31%
C=C(CC[C@@H](COS(=O)(=O)O)[C@H]1CC[C@H]2[C@@H]3CC[C@@H]4[C@H](O)[C@H](OS(=O)(=O)O)CC[C@]4(C)[C@H]3[C@@H](O)C[C@]12C)C(C)C,SABIN (TYPE 3),5 µg/mL,inhibition,VERO,19%
Cc1ccc(C(=O)CCCCOc2ccc(C3=N[C@@H](C)CO3)cc2)s1,TYPE 2,-,EC50,VERO,2.26 µM
C/C(=N\O)c1ccc2c(c1)Sc1ccccc1O2,TYPE 3,0.4 µg/mL,inhibition,BSC-1,16%
Clc1ccc(C2=Cc3ccccc3OC2)cc1,IB (TYPE 2),10 µM,inhibition,HEP-2,15%
CC(=O)c1ccc2c(c1)S(=O)(=O)c1ccccc1O2,TYPE 3,10 µg/mL,inhibition,BSC-1,10%
Clc1ccc(C2COc3ccc(Cl)cc3C2)cc1,TYPE 2,10 µM,inhibition,HEP-2,0%
CCC(=O)c1ccc2c(c1)Sc1ccccc1O2,TYPE 3,2 µg/mL,inhibition,BSC-1,62%
CCC1COC(c2ccc(OCCCCC(=O)c3ccc(C)s3)cc2)=N1,TYPE 1,-,EC50,VERO,>26.95 µM
Clc1ccc2c(c1)C=C(c1ccccc1)CO2,IA (TYPE 2),-,EC50,HEP-2,<10 µM
CC(=O)c1ccc2c(c1)Cc1ccccc1O2,TYPE 3,0.4 µg/mL,inhibition,BSC-1,50%

The last 2 rows once more:

| compound | strain or isolate | dose | read-out | cells | result |
|---|---|---|---|---|---|
| Clc1ccc2c(c1)C=C(c1ccccc1)CO2 | IA (TYPE 2) | - | EC50 | HEP-2 | <10 µM |
| CC(=O)c1ccc2c(c1)Cc1ccccc1O2 | TYPE 3 | 0.4 µg/mL | inhibition | BSC-1 | 50% |

Conditions beyond the fields shown may differ between rows. ECn: concentration that inhibits the pathogen or its effect by n%. Percent inhibition refers to the dose given; in toxicity tests it is the harm to the cells.